IC50 data for 4 substances are collected here from patent US6410594B1, “Substituted cyclopentane compounds useful as neuraminidase inhibitors” (Biocryst Pharmaceuticals, Inc., priority 1996, dated 2002).

The chains behind the UniProt entries cited, without tags or fusion partners. Residues count along the entry.
UniProt P03472, 83-470 limits assumed: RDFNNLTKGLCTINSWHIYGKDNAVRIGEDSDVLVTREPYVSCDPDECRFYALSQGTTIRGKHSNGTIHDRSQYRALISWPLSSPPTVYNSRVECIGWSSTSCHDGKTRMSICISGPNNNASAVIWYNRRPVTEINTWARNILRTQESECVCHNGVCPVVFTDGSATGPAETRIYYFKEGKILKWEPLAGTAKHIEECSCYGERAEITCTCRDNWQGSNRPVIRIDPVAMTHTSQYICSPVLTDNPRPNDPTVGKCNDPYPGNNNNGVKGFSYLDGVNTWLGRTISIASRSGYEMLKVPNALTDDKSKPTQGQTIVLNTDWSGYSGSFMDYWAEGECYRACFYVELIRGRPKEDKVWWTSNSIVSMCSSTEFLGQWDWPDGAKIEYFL

For the experiment, the target named is H1N9 Influenza Neuraminidase (Influenza A virus, UniProt P03472). Type of experiment: biochemical, influenza virus (H1N9 strain). The conditions noted are these: pH 6.5; read-out: Inhibition of H1N9 Influenza Neuraminidase IC50.

A word on the IC50: it is the concentration needed to halve the response being measured. As to “3β-{[(Amino)(imino)methyl]amino}-4α-[(diethylaminocarbonyl)(methylcarbonylamino)methyl]-cyclopentancarboxylic acid (isomer A at C-6) [Example 26]”, the IC50 was found to be 0.041 µM. For the substance “c-3-{[(Amino)(imino)methyl]amino}-t-4-[(di-n-propylaminocarbonyl)(methylcarbonylamino)-methyl]-t-1-hydroxycyclopentan-r-carboxylic acid trifluoroacetic acid (1:1) (isomer A at C-6) [Example 24]”, the IC50 was 4.9 µM. In the case of “c-3-{[(Amino)(imino)methyl]amino}-t-4-[(di-n-propylaminocarbonyl)(methylcarbonylamino)-methyl]-t-1-hydroxycyclopentan-r-carboxylic acid trifluoroacetic acid (1:1) (isomer B at C-6) [Example 25]” it was 2300 µM; in that of “t-3-{[(Amino)(imino)methyl]amino}-c-4-[(diethylaminocarbonyl)(methylcarbonylamino)methyl]-t-1-hydroxycyclopentan-r-carboxylic acid trifluoroacetic acid (3:5) [Example 21]”, 1.6 µM.
